We go through 2 molecules from US11203613B2, “Peptidomimetic proteasome inhibitors” (CORNELL UNIVERSITY, priority 2017, dated 2021).

The chains behind the UniProt entries cited, without tags or fusion partners. Residues count along the entry.
UniProt P9WHT9, 58-291 limits assumed: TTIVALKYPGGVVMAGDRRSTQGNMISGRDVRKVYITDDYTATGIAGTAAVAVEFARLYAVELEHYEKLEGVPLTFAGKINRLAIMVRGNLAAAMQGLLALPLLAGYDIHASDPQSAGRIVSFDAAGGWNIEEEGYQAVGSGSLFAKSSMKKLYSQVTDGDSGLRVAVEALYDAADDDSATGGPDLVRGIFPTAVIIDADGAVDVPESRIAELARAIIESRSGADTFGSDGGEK

The experiment concerns the target Mtb20SOG (Mycobacterium tuberculosis, UniProt P9WHT9). Conditions: read-out: Mtb20SOG IC50.

SMILES strings stand for the structures. Values joined by “and” are separate entries in the source; they are usually repeats but may differ in a detail not shown here. Identical values can stand only once.

Broadly, the IC50 is the concentration at which inhibition is half-maximal. On to `CC(C)CCC(=O)N[C@@H](CC(=O)N1CCC[C@@H]1c1ccccc1)C(=O)N[C@H](C)c1nc2ccccc2[nH]1` [CEN-49, N—((S)-1-(((R)-1-(1H-Benzo[d]imidazol-2-yl)ethyl)amino)-1,4-dioxo-4-((R)-2-phenylpyrrolidin-1-yl)butan-2-yl)-4-methylpentanamide], for which the half-maximal inhibitory concentration (IC50) was 636 nM and 420 nM.
In the case of `C[C@H](NC(=O)[C@H](CC(=O)N1CCCC[C@@H]1C)Nc1nc2ccccc2o1)c1ncc(-c2ccc(F)cc2F)[nH]1` [CEN-109, (S)-2-(Benzo[d]oxazol-2-ylamino)-N—((S)-1-(5-(2,4-difluorophenyl)-1H-imidazol-2-yl)ethyl)-4-((S)-2-methylpiperidin-1-yl)-4-oxobutanamide] it was 2490 nM.
